Compound potency records, mixed from different reports. Data source: NIAID ChemDB in PubChem.

Shared fields: tests on isolated targets

Blank or dashed fields: not listed here. Fold resistance: result on the changed form divided by that on wild type. Inhibition is in % at the dose shown (toxicity tests: loss of growth or viability). Neighbouring rows are from separate reports. ICn: concentration for n% inhibition.

smiles | dose | read by | measure | changes | strain or isolate | protein | organism | value
COc1cc(OC)c(C=C2SC(=O)N(Cc3ccc(F)cc3F)C2=O)c(OC)c1 | - | fluorescence | IC50 | - | - | Falcipain-2 | Plasmodium falciparum | 29.08 µM
Cc1cc2c(c(O)c1C(=O)O)-c1c(cc3c(c1O)C(=O)c1cc(O)cc(O)c1C3=O)[C@H](O)[C@H]2O | - | - | IC50 | - | - | Glucosidase | Actinomadura verrucosospora | 69 µg/mL
CO[P@](=O)(c1cc(C)cc(/C=C/C#N)c1)c1c(C(N)=O)[nH]c2ccc(Cl)c(F)c12 | - | - | IC50 | - | - | Reverse transcriptase | HIV | <0.366 µM
CC1(C)C(C(=O)Nc2ccsc2-c2nc(C(=O)O)c(O)c(=O)[nH]2)C1(C)C | - | - | IC50 | - | - | HCV polymerase | Hepatitis C virus | <25 µM
COc1cc(OC)c(C=C2SC(=O)N(CC(=O)N3CCN(c4ccc(Cl)cc4)CC3)C2=O)c(OC)c1 | - | fluorescence | IC50 | - | - | Falcipain-2 | Plasmodium falciparum | 11.23 µM
CN(Cc1ccc2nc(N)nc(N)c2n1)c1ccccc1Cl | - | - | IC50 | - | - | Dihydrofolate reductase | Cryptosporidium parvum | 0.91 µM
N[C@H](C(=O)Nc1ccsc1-c1nc(C(=O)O)c(O)c(=O)[nH]1)c1ccccc1 | - | - | IC50 | - | - | HCV polymerase | Hepatitis C virus | <25 µM
COc1cc(O)c2c(c1)C(=O)c1c(cc3c(c1O)-c1c(cc(C)c(C(=O)O)c1O)[C@H](O)[C@H]3O)C2=O | - | - | IC50 | - | - | Glucosidase | Actinomadura verrucosospora | 96 µg/mL
Cc1cnccn1 | - | - | IC50 | - | RH | Uracil phosphoribosyltransferase | Toxoplasma gondii | >2000 µM
COc1cc(Cc2sc3nc(N)nc(N)c3c2C)c(Br)c(OC)c1OC | - | - | IC50 | - | - | Dihydrofolate reductase | Cryptosporidium parvum | 10.2 µM
O=C(CN1C(=O)SC(=Cc2ccc(C(F)(F)F)cc2)C1=O)N1CCN(c2ccccc2)CC1 | - | fluorescence | IC50 | - | - | Falcipain-2 | Plasmodium falciparum | 18.04 µM
CCCCC(N)B(O)O | - | - | IC50 | - | - | Aminopeptidase | Cryptosporidium parvum | <0.001 µM
O=C(O)c1nc(-c2cccc(NS(=O)(=O)c3ccccc3)c2)[nH]c(=O)c1O | - | - | IC50 | - | - | HCV polymerase | Hepatitis C virus | <100 µM
CC1(C)N=C(N)N=C(N)N1c1ccc(C(=O)O)cc1 | - | - | IC50 | - | RH | DHFR | Toxoplasma gondii | >52 µM
O=C(Nc1ccsc1-c1nc(C(=O)O)c(O)c(=O)[nH]1)OCCc1ccsc1 | - | - | IC50 | - | - | HCV polymerase | Hepatitis C virus | <25 µM
O=c1[nH]cc([N+](=O)[O-])c(=O)[nH]1 | - | - | IC50 | - | RH | Uracil phosphoribosyltransferase | Toxoplasma gondii | >2000 µM
O=C(O)c1nc(-c2sccc2NC(=O)N2CCCCC2)[nH]c(=O)c1O | - | - | IC50 | - | - | HCV polymerase | Hepatitis C virus | <25 µM
COc1ccnc(OC)n1 | 2000 µM | - | inhibition | - | RH | Uracil phosphoribosyltransferase | Toxoplasma gondii | <5%
O=C(Nc1cscc1-c1nc(C(=O)O)c(O)c(=O)[nH]1)NS(=O)(=O)c1cccc(C(F)(F)F)c1 | - | - | IC50 | - | - | HCV polymerase | Hepatitis C virus | <25 µM
COc1cc(OC)c(C=C2SC(=O)N(CC(=O)N3CCN(C(=O)c4ccccc4)CC3)C2=O)c(OC)c1 | - | fluorescence | IC50 | - | - | Falcipain-2 | Plasmodium falciparum | 33.75 µM
CC(C)NC(=O)Nc1cccc(-c2nc(C(=O)O)c(O)c(=O)[nH]2)c1 | - | - | IC50 | - | - | HCV polymerase | Hepatitis C virus | <100 µM
O=C(/C=C/c1ccccc1)Nc1nnc(NCc2cccnc2)s1 | - | - | IC50 | - | - | Polymerase | Human cytomegalovirus | >25 µM
Cc1cccc(C)c1OCC(=O)N[C@@H](Cc1ccccc1)[C@H](O)CN1CC[C@@H](Sc2ccncc2)C[C@H]1C(=O)NC(C)(C)C | - | fluorescence | Ki | - | - | Protease | HIV-2 | 0.000024 µM
O=C(Nc1csc(-c2nc(C(=O)O)c(O)c(=O)[nH]2)c1)c1cccs1 | - | - | IC50 | - | - | HCV polymerase | Hepatitis C virus | <25 µM
O=C(Nc1nnc(NCCc2c[nH]c3ccccc23)s1)c1c(Cl)cccc1Cl | - | - | IC50 | - | - | Polymerase | Human cytomegalovirus | >25 µM
CC1(C)N=C(N)N=C(N)N1c1cccc(OCCCOc2cccc([N+](=O)[O-])c2)c1 | - | - | IC50 | - | RH | DHFR | Toxoplasma gondii | 0.033 µM
CC(C)[C@H](NC(=O)c1ccc2ccccc2n1)C(=O)N[C@@H](Cc1ccccc1)[C@H](O)CN1CC[C@@H](SCc2cccnc2)C[C@H]1C(=O)NC(C)(C)C | - | fluorescence | fold resistance | PR-L10I L23I M46I I84V | - | Protease | HIV | 41.8
O=C(Nc1cccc(-c2nc(C(=O)O)c(O)c(=O)[nH]2)c1)c1cc2ccccc2s1 | - | - | IC50 | - | - | HCV polymerase | Hepatitis C virus | <100 µM
CN[C@@H]1[C@H](O[C@@H]2OC[C@@H](O)[C@H](O)[C@H]2O)[C@@H](O)[C@H](O[C@H]2c3cc(C)c(C(=O)N[C@H](C)C(=O)O)c(O)c3-c3c(cc4c(c3O)C(=O)c3cc(OC)cc(O)c3C4=O)[C@@H]2O)O[C@@H]1C | - | - | IC50 | - | - | Glucosidase | Actinomadura verrucosospora | >100 µg/mL
O=C(/C=C/c1ccccc1Cl)Nc1nnc(NCCN2CCCC2)s1 | - | - | IC50 | - | - | Polymerase | Human cytomegalovirus | >25 µM
CC1(C)N=C(N)N=C(N)N1c1cccc(C=C/C=C/c2cccc([N+](=O)[O-])c2)c1 | - | - | IC50 | - | RH | DHFR | Toxoplasma gondii | 0.1 µM
Nc1ncnc2c1ncn2C[C@H](O)CO | 500 µM | - | inhibition | - | - | RNA polymerase | Simian rotavirus | 0%
O=c1cn[nH]c(=S)[nH]1 | 2000 µM | - | inhibition | - | RH | Uracil phosphoribosyltransferase | Toxoplasma gondii | <5%
NC(=O)c1ncn([C@@H]2O[C@H](CO)[C@@H](O)[C@H]2O)n1 | 500 µM | - | inhibition | - | - | RNA polymerase | Simian rotavirus | 9%
Cl.O=c1nccc[nH]1 | 2000 µM | - | inhibition | - | RH | Uracil phosphoribosyltransferase | Toxoplasma gondii | <10%
CC(C)c1cc(C(C)C)c(C(=O)Nc2nnc(NCc3ccco3)s2)c(C(C)C)c1 | - | - | IC50 | - | - | Polymerase | Human cytomegalovirus | >25 µM
NC(Cc1ccccc1)B(O)O | - | - | IC50 | - | - | Aminopeptidase | Cryptosporidium parvum | <0.001 µM
COc1cc(CN(C)c2ccc3nc(N)nc(N)c3c2Cl)cc(OC)c1OC | - | - | IC50 | - | - | Dihydrofolate reductase | Cryptosporidium parvum | 0.81 µM
O=C(O)c1cnccn1 | 2000 µM | - | inhibition | - | RH | Uracil phosphoribosyltransferase | Toxoplasma gondii | <5%
Nc1nc(N)c(-c2ccc(Cl)cc2)c(COc2ccc([N+](=O)[O-])cc2)n1 | - | - | IC50 | - | RH | DHFR | Toxoplasma gondii | 1.37 µM
CC(=O)N[C@@H](CC(C)C)C(=O)N[C@@H](CC(C)C)C(=O)N[C@H](C=O)CCCN=C(N)N | - | - | IC50 | - | - | Aminopeptidase | Cryptosporidium parvum | >1000 µM
Nc1nc(N)c2c(n1)-c1ccsc1CC2 | - | - | IC50 | - | - | Dihydrofolate reductase | Cryptosporidium parvum | >10 µM
COc1ccc(C=C2SC(=O)N(CC(=O)N3CCN(c4ccccc4)CC3)C2=O)cc1 | - | fluorescence | IC50 | - | - | Falcipain-2 | Plasmodium falciparum | >50 µM
CC(C)C(N)B(O)O | - | - | IC50 | - | - | Aminopeptidase | Cryptosporidium parvum | <0.001 µM

Again, the opening 6 rows:

COc1cc(OC)c(C=C2SC(=O)N(Cc3ccc(F)cc3F)C2=O)c(OC)c1 ; read by: fluorescence ; measure: IC50 ; protein: Falcipain-2 ; organism: Plasmodium falciparum ; value: 29.08 µM
Cc1cc2c(c(O)c1C(=O)O)-c1c(cc3c(c1O)C(=O)c1cc(O)cc(O)c1C3=O)[C@H](O)[C@H]2O ; measure: IC50 ; protein: Glucosidase ; organism: Actinomadura verrucosospora ; value: 69 µg/mL
CO[P@](=O)(c1cc(C)cc(/C=C/C#N)c1)c1c(C(N)=O)[nH]c2ccc(Cl)c(F)c12 ; measure: IC50 ; protein: Reverse transcriptase ; organism: HIV ; value: <0.366 µM
CC1(C)C(C(=O)Nc2ccsc2-c2nc(C(=O)O)c(O)c(=O)[nH]2)C1(C)C ; measure: IC50 ; protein: HCV polymerase ; organism: Hepatitis C virus ; value: <25 µM
COc1cc(OC)c(C=C2SC(=O)N(CC(=O)N3CCN(c4ccc(Cl)cc4)CC3)C2=O)c(OC)c1 ; read by: fluorescence ; measure: IC50 ; protein: Falcipain-2 ; organism: Plasmodium falciparum ; value: 11.23 µM
CN(Cc1ccc2nc(N)nc(N)c2n1)c1ccccc1Cl ; measure: IC50 ; protein: Dihydrofolate reductase ; organism: Cryptosporidium parvum ; value: 0.91 µM